Compound potency records, mixed from different reports. Data source: NIAID ChemDB in PubChem.

Common to all: growth or infection tests; organism: Mycobacterium tuberculosis

Lines come from different laboratories, so protocols vary. MIC50, MIC90 and the like: level of inhibition, or share of isolates inhibited. ECn: concentration that inhibits the pathogen or its effect by n%. An empty or dashed field is not shown. MIC bound: limit read from a one-dose screen. a–b is a range or a potency band. Percent inhibition refers to the dose given; in toxicity tests it is the harm to the cells.

smiles | method | strain or isolate | endpoint | dose | value
NC(=O)c1ccc(N)nc1 | BACTEC | H37Rv | inhibition | 12.5 µg/mL | 20%
COc1ccc(-c2nc(NCCN3CCOCC3)[nH]c(=O)c2C#N)cc1 | - | H37Ra | MIC | - | >50 µg/mL
CC[C@H]1OC(=O)[C@H](C)[C@@H](O[C@H]2C[C@@](C)(OC)[C@@H](O)[C@H](C)O2)[C@H](C)[C@@H](O[C@@H]2O[C@H](C)C[C@H](N(C)C)[C@H]2O)[C@](C)(OC)C[C@@H](C)C(=O)[C@H](C)[C@@H](O)[C@]1(C)O | - | BCG | MBC | - | >0.5 µg/mL
CCC(CO)NC[C@H]1N[C@@H](CO)[C@@H](O)[C@@H]1O | - | H37Ra | MIC | - | >128 µg/mL
CCOc1ccc(-n2c(O)c(N=Nc3ccccc3OC)sc2=S)cc1 | BACTEC | H37Rv | MIC bound | - | >12.8 µg/mL
CC1CCCC2(C1)SC(C)C(=O)N2NC(=O)C(O)(c1ccccc1)c1ccccc1 | - | H37Rv | inhibition | 6.25 µg/mL | 1%
Nc1ncnc2c1ncn2-c1ccc([N+](=O)[O-])cn1 | resazurin | H37Rv | MIC bound | - | >6.25 µg/mL
OCCCN1c2ccccc2Sc2ccccc21 | resazurin | H37Rv | MIC90 | - | >32 µg/mL
Cc1[nH]n(-c2ccc(Cl)cc2)c(=O)c1N=Nc1cccc(C(F)(F)F)c1 | BACTEC | H37Rv | MIC bound | - | >12.8 µg/mL
N#Cc1c(-c2cccnc2)nc(NC2CCCCC2)[nH]c1=O | - | H37Ra | MIC | - | >50 µg/mL
CCCC=C1c2ccccc2Sc2ccccc21 | resazurin | H37Rv | MIC90 | - | >32 µg/mL
Cc1ccc(C)n1NC(=O)c1ccc(N)cc1O | - | Erdman | MIC | - | 2.6 µg/mL
COc1ccc(/C=N/N(C(=O)c2ccncc2)C(=O)c2cnccn2)c(O)c1 | - | H37Rv | MIC | - | >16 µg/mL
COc1nc2ccc(Br)cc2cc1C(c1ccccc1)C(O)(CCN1CCCCC1)c1cccc2ccccc12 | - | H37Rv | MIC90 | - | 59.56 µg/mL
Cc1c(C(=O)c2ccc(-c3ccccc3)cc2)oc2cc3occ(C=C4C(=O)NC(=O)NC4=O)c(=O)c3cc12 | resazurin | H37Rv | EC90 | - | >100 µg/mL
CO[C@H]1/C=C/O[C@@]2(C)Oc3c(C)c(O)c4c(=O)c(c5oc6cc(N7CCN(CC(C)C)CC7)cc(=O)c6nc5c4c3=C2O)NC(=O)/C(C)=C\C=C\[C@H](C)[C@H](O)[C@@H](C)[C@@H](O)[C@@H](C)[C@H](OC(C)=O)[C@@H]1C | - | TN804 | MIC | - | 8 µg/mL
NCC[C@H](O)C(=O)N[C@@H]1C[C@H](N)[C@@H](O[C@H]2O[C@H](CN)[C@@H](O)[C@H](O)[C@H]2O)[C@H](O)[C@H]1O[C@H]1O[C@H](CO)[C@@H](O)[C@H](N)[C@H]1O | - | BCG | MIC | - | 0.25 µg/mL
Cn1c(C(=O)N/N=C\c2ccco2)nc2ncccc21 | - | H37Rv | MIC | - | 125 µg/mL
COc1nc2ccc(Br)cc2cc1C(c1ccccc1)C(O)(CCN1CCCC1)c1ccc2cc(Br)ccc2c1 | - | H37Rv | MIC90 | - | 52.46 µg/mL
O=C1Nc2ccccc2/C1=N/N=C/c1ccco1 | BACTEC | H37Rv | MIC bound | - | >12.5 µg/mL
CCCN1CN(NC(=O)c2ccncc2)CSC1=S | - | - | MIC | - | 25 µg/mL
O=C(c1ccncc1)N(/N=C/c1ccc(Cl)cc1)C(=O)c1cnccn1 | - | H37Rv | MIC | - | 0.5 µg/mL
O=C1c2cc(F)ccc2-n2c1nc1ccc(F)cc1c2=O | - | MDR 10038 | MIC | - | 1 µg/mL
O=[N+]([O-])c1ccc(/C=C/C(CCN2CCCCC2)=N/O)o1 | BACTEC | H37Rv | MIC | - | ≥12.5 µg/mL
CO[C@H]1[C@@H](O)[C@H](n2ccc(=O)[nH]c2=O)O[C@@H]1[C@@H](O[C@H]1OC(C(=O)N[C@H]2CCC[C@@H](C)NC2=O)=C[C@H](O)[C@@H]1O)C(N)=O | - | NO.74 | MIC | - | 32 µg/mL
CCCCCCCCNc1nc(-c2ccc(C)cc2)c(C#N)c(=O)[nH]1 | - | H37Ra | MIC | - | >50 µg/mL
Cn1c(C(=O)NN)nc2ncccc21 | - | H37Rv | MIC | - | 31 µg/mL
N#Cc1c(-c2cccnc2)nc(NCc2ccccc2)[nH]c1=O | - | H37Ra | MIC | - | >50 µg/mL
COc1ccc2nc(-c3nc4ncccc4n3C)sc2c1 | - | H37Rv | MIC | - | 6.2 µg/mL
O=C(c1ccncc1)N(/N=C/c1ccco1)C(=O)c1cnccn1 | - | H37Rv | MIC | - | 4 µg/mL
CC[C@H](C)[C@@H](NC(=O)[C@@H](CCC(=O)O)NC(=O)[C@H](Cc1cnc[nH]1)NC(=O)[C@H](CC(C)C)NC(=O)[C@H](N)Cc1ccccc1)C(=O)N[C@H]1CCCCNC1=O | broth dilution | H37Rv | MIC | - | 12.5 µg/mL
O=C(c1ccncc1)N(/N=C/c1cccc(Oc2ccccc2)c1)C(=O)c1cnccn1 | - | H37Rv | MIC | - | >16 µg/mL
CC1=NN(c2ccccc2)C(=O)C1N=Nc1ccc(S(=O)(=O)Nc2nnc(C)s2)cc1 | - | PZA-R | MIC | - | 3.1 µg/mL
COCCCN1c2ccccc2Sc2ccccc21 | resazurin | H37Rv | MIC90 | - | >32 µg/mL
S=C(S)N1CCN(C(=S)S)CC1 | BACTEC | H37Rv | MIC bound | - | >128 µg/mL
COc1ccc(C=C2c3ccccc3Sc3ccccc32)cc1C | resazurin | H37Rv | MIC90 | - | 29 µg/mL
N#Cc1c(-c2cccnc2)nc(NC2CCCCCC2)[nH]c1=O | - | H37Ra | MIC | - | >50 µg/mL
COc1nc2ccc(Br)cc2cc1C(c1ccccc1)C(O)(CCN1CCN(C)CC1)c1cccc2ccccc12 | - | H37Rv | MIC90 | - | 9.68 µg/mL
CNC(=S)c1nc2ncccc2n1C | - | H37Rv | MIC | - | 25 µg/mL
CN1CCN(c2cc3c(cc2F)C(=O)c2nc4cc(F)ccc4c(=O)n2-3)CC1 | - | H37Rv | MIC | - | >5 µg/mL
N#Cc1c(-c2ccc(F)cc2)nc(N2CCN(c3ccccc3)CC2)[nH]c1=O | - | H37Ra | MIC | - | 25–50 µg/mL
CC1SC2(CCC(c3ccccc3)CC2)N(NC(=O)C(O)(c2ccccc2)c2ccccc2)C1=O | - | H37Rv | inhibition | 6.25 µg/mL | 86%
CC[C@@H](CO)NC[C@@H]1O[C@H](CO)[C@@H](O)[C@@H]1O | - | H37Ra | MIC | - | >128 µg/mL
O=C(O)CCN1c2ccccc2Sc2ccccc21 | resazurin | H37Rv | MIC90 | - | >32 µg/mL
CN(C)CCC(O)(c1cccc2ccccc12)C(c1ccccc1)c1cc2cc(Br)ccc2[nH]c1=O | - | H37Rv | MIC90 | - | 8.58 µg/mL
Nc1ccc2nc3n(c(=O)c2c1)-c1ccc(F)cc1C3=O | - | MDR 10038 | MIC | - | 5 µg/mL
CN(C)c1ccc(-c2nc(NC3CCCCCC3)[nH]c(=O)c2C#N)cc1 | - | H37Ra | MIC | - | >50 µg/mL
Cc1c(C(=O)c2ccccc2)oc2cc3occ(C=C4C(=O)NC(=S)NC4=O)c(=O)c3cc12 | resazurin | H37Rv | EC90 | - | >100 µg/mL
CC1SC2(CCCCC2)N(NC(=O)C(O)(c2ccccc2)c2ccccc2)C1=O | - | H37Rv | inhibition | 6.25 µg/mL | 0%
OCCN(CC(O)C(O)CN(CCO)C(=S)S)C(=S)S | resazurin | H37Rv | MIC bound | - | >6.25 µg/mL
CCC(CO)NC[C@H]1O[C@H](CO)[C@@H](O)[C@@H]1O | - | H37Ra | MIC | - | >128 µg/mL
COc1ccc(C(=O)c2oc3cc4occ(C=C5C(=O)NC(=S)NC5=O)c(=O)c4cc3c2C)cc1 | resazurin | H37Rv | EC90 | - | >100 µg/mL
COc1ccc(/C=C/C(=O)c2sc(NC(=S)NC(=O)c3ccc(Cl)cc3)nc2C)cc1OC | resazurin | H37Rv | inhibition | 6.25 µg/mL | 15%
c1ccc(N2c3ccccc3Sc3ccccc32)cc1 | resazurin | H37Rv | MIC | - | 4 µg/mL
CCN(CC)CCN(C(=O)OCCOC(=O)N(CCN(CC)CC)c1cccc2sc3ccccc3c(=O)c12)c1cccc2sc3ccccc3c(=O)c12 | BACTEC | H37Rv | inhibition | 12.5 µg/mL | -9%
CN(C)c1ccc(-c2nc(NCCCN3CCOCC3)[nH]c(=O)c2C#N)cc1 | - | H37Ra | MIC | - | >50 µg/mL
CC(=O)NS(=O)(=O)c1ccc(NC(=O)COC(=O)c2cccc3c(=O)c4ccccc4[nH]c23)cc1 | BACTEC | H37Rv | inhibition | 12.5 µg/mL | 0%
Cc1ccc(C)n1NC(=O)c1ccc(Br)cc1 | - | Erdman | MIC | - | 32 µg/mL
CCC(=O)NN(Cn1c(=S)sc2ccccc21)Cn1c(=S)sc2ccccc21 | BACTEC | H37Rv | MIC bound | - | >12.5 µg/mL
NNC(=O)c1ccncc1 | - | - | MIC | - | 0.06 µg/mL
CCN(CC)c1ccc2nc3ccc(N=Nc4c(O)ccc5ccccc45)cc3[n+](-c3ccccc3)c2c1.[Cl-] | BACTEC | H37Rv | MIC bound | - | ≤12.5 µg/mL
COc1ccc(/C=N/NC(=O)c2nc3ncccc3n2C)cc1OC | - | H37Rv | MIC | - | 62 µg/mL
CCCCCCCCCCCCCCCCSC[C@@H]1N[C@H](CO)[C@@H](O)[C@@H]1O | - | H37Ra | MIC | - | 16–64 µg/mL
CCCCN1CN(NC(=O)c2ccncc2)CSC1=S | - | - | MIC | - | 25 µg/mL
NC(=S)N/N=C(\C(=O)Nc1ccc(Cl)c(Cl)c1)C1=NN(c2ccccc2)C(c2cccc([N+](=O)[O-])c2)CC1=O | BACTEC | H37Rv | inhibition | 12.5 µg/mL | 47%
CC1CCC2(CC1)SC(C)C(=O)N2NC(=O)C(O)(c1ccccc1)c1ccccc1 | - | H37Rv | inhibition | 6.25 µg/mL | 36%
O=C1c2cc(I)ccc2-n2c1nc1ccccc1c2=O | - | MDR 10038 | MIC | - | ≤0.2 µg/mL
CN1C(=O)C(c2c[nH]c3ccccc23)N(C)C(=O)C1c1c[nH]c2ccccc12 | resazurin | H37Rv | MIC bound | - | >6.25 µg/mL
CN(C)CCC(O)(c1cccc(F)c1)C1c2ccccc2Sc2ccccc21 | resazurin | H37Rv | MIC90 | - | 7 µg/mL
CCCCN1[C@H](CO)[C@@H](O)[C@H](O)[C@@H]1CO | - | H37Ra | MIC | - | >128 µg/mL
O=C(OCC(F)(F)F)c1cnccn1 | - | Clinical isolate LFL | MIC | - | 50 µg/mL
CCCCCCCCCCCCS(=O)(=O)C[C@@H]1N[C@H](CO)[C@@H](O)[C@@H]1O | - | H37Ra | MIC | - | 32–128 µg/mL
CCOC1CCCC(CC(=O)NNc2ccccc2)C1O | BACTEC | H37Rv | MIC bound | - | >12.5 µg/mL
COc1nc2cc(C)c(C)cc2cc1C(c1ccccc1)C(O)(CCN(C)C)c1cccc2ccccc12 | - | H37Rv | MIC90 | - | 40.09 µg/mL
O=C1N=C(C=c2ccc(=Cc3[nH]c(=O)[nH]c3O)cc2)C(=O)N1 | BACTEC | H37Rv | MIC bound | - | >12.5 µg/mL
COc1nc2ccc(Br)cc2cc1C(c1ccccc1)C(O)(CCn1cncn1)c1ccccc1 | - | H37Rv | MIC90 | - | 52.94 µg/mL
CN[C@@H]1[C@H](O[C@H]2[C@H](O[C@H]3[C@H](O)[C@@H](O)[C@H](N=C(N)N)[C@@H](O)[C@@H]3N=C(N)N)O[C@@H](C)[C@]2(O)C=O)O[C@@H](CO)[C@H](O)[C@H]1O | - | BCG | MIC | - | 0.25 µg/mL
COC1=NC2=CC(=O)c3c(c(OC(C)=O)c(C)c4c3C(=O)[C@@](C)(O/C=C/[C@H](OC)[C@@H](C)[C@@H](OC(C)=O)[C@H](C)[C@H](O)[C@H](C)[C@@H](OC(C)=O)[C@@H](C)/C=C/C=C\1C)O4)C2=O | BACTEC | H37Rv | inhibition | 12.5 µg/mL | 93%
COc1cc(/C=N/N(C(=O)c2ccncc2)C(=O)c2cnccn2)ccc1O | - | 9 isolates (resistant) | MIC | - | >16 µg/mL
Cc1nnc2n1N=C(CC(=O)c1ccc(O)cc1O)CN2N | BACTEC | H37Rv | inhibition | 12.5 µg/mL | 3%
CC[C@H](CO)NC[C@@H]1O[C@H](CO)[C@@H](O)[C@@H]1O | - | H37Ra | MIC | - | >128 µg/mL

A second listing of 8 rows from above:

smiles | method | strain or isolate | endpoint | dose | value
OCCCN1c2ccccc2Sc2ccccc21 | resazurin | H37Rv | MIC90 | - | >32 µg/mL
CCCCN1[C@H](CO)[C@@H](O)[C@H](O)[C@@H]1CO | - | H37Ra | MIC | - | >128 µg/mL
Cc1c(C(=O)c2ccccc2)oc2cc3occ(C=C4C(=O)NC(=S)NC4=O)c(=O)c3cc12 | resazurin | H37Rv | EC90 | - | >100 µg/mL
O=C1c2cc(F)ccc2-n2c1nc1ccc(F)cc1c2=O | - | MDR 10038 | MIC | - | 1 µg/mL
O=C(OCC(F)(F)F)c1cnccn1 | - | Clinical isolate LFL | MIC | - | 50 µg/mL
CN(C)c1ccc(-c2nc(NCCCN3CCOCC3)[nH]c(=O)c2C#N)cc1 | - | H37Ra | MIC | - | >50 µg/mL
CC(=O)NS(=O)(=O)c1ccc(NC(=O)COC(=O)c2cccc3c(=O)c4ccccc4[nH]c23)cc1 | BACTEC | H37Rv | inhibition | 12.5 µg/mL | 0%
CC[C@@H](CO)NC[C@@H]1O[C@H](CO)[C@@H](O)[C@@H]1O | - | H37Ra | MIC | - | >128 µg/mL